Results reported in article PMC10691697, “A small molecule exerts selective antiviral activity by targeting the human cytomegalovirus nuclear egress complex” (PLOS Pathogens, 2023).

Protein sequences, listed by entry. Tags and fused reporters are not part of them. Residues count along the entry.
UniProt P16794, 50-292 limits assumed: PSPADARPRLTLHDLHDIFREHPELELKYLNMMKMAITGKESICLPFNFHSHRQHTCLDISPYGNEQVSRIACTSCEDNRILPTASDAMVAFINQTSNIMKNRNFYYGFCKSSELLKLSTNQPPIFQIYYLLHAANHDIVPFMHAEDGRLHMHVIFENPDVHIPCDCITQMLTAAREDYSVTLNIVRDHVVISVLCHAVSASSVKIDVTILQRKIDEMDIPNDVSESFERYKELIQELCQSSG
UniProt P16794, 50-292 C214S limits assumed: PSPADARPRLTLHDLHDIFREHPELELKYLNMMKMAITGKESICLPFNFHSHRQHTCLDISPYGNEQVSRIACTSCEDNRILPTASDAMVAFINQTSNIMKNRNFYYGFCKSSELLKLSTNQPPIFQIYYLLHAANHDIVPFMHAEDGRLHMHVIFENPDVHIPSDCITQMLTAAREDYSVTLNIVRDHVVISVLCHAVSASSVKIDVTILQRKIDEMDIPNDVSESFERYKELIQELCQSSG
UniProt P16794, 50-292 C288S limits assumed: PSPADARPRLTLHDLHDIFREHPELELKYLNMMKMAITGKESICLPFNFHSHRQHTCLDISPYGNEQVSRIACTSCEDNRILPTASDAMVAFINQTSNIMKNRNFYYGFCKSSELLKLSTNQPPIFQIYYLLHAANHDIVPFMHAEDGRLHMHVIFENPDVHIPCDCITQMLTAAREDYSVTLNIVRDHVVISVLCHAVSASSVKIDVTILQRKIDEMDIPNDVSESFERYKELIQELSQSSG
UniProt P16794, 50-292 C159S limits assumed: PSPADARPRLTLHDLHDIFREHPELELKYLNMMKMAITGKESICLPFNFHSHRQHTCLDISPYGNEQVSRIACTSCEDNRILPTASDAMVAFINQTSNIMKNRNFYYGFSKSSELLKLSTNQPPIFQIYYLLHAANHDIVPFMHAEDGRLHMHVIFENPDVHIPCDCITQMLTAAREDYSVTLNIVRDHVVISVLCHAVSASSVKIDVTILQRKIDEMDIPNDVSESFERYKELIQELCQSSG
UniProt P10226, 1-340 limits assumed: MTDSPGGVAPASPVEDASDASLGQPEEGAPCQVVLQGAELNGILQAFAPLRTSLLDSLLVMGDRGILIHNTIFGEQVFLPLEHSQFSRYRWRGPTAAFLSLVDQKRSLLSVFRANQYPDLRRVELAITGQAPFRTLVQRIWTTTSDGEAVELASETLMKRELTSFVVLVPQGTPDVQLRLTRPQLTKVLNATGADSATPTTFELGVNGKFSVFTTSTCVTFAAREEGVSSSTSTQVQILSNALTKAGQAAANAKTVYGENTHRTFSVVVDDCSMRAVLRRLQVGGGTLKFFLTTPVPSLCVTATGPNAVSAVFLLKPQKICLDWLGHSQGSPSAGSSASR

Assays:
[1] = system: HCMV expressing GFP (53-F BADGFP); settings: for ED50, HCMV plaque formation: HFF, automated plaque reduction assay, 6 dpi; for CC50/ED50: anti-HCMV ED50 (APRA) and parallel WST-1 CC50
[2] = system: HFF cells; settings: for CC50: read-out: CC50, cytotoxicity on HFF, WST-1, six days, in parallel with automated plaque reduction assay
[3] = biological target: HCMV UL50-UL53 (Human cytomegalovirus, UniProt P16794); settings: for IC50: read-out: IC50 (50% inhibitory concentration), HTRF assay
[4] = biological target: UL53_C214S+UL50 (Human cytomegalovirus, UniProt P16794, C214S); assay: HTRF assay, UL53 mutant C214S with WT UL50; assay type: binding; settings: for effect of UL53 C214S substitution on inhibition of NEC interactions: HTRF, concentrations as high as 50 μM
[5] = biological target: UL53_C288S+UL50 (Human cytomegalovirus, UniProt P16794, C288S); assay: HTRF assay, UL53 mutant C288S with WT UL50; assay type: binding; settings: 50.00 μM
[6] = biological target: HSV-1 P30-UL42 (Human herpesvirus 1, UniProt P10226)
[7] = biological target: UL53_C159S+UL50 (Human cytomegalovirus, UniProt P16794, C159S); assay: HTRF assay, UL53 mutant C159S with WT UL50; assay type: binding

| Structure (SMILES) | anti-HCMV, antiviral activities (S7 Fig) ([1]; 50.00 μM) | ED50, HCMV plaque formation [1] [µM] | CC50 [2] [µM] | IC50 [3] [µM] | effect of UL53 C214S substitution on inhibition of NEC interactions [4] | CC50/ED50 [1] | also measured |
| --- | --- | --- | --- | --- | --- | --- | --- |
| C=CC(=O)Nc1ccc(Oc2ccnc3[nH]ccc23)cc1 | 0.0000 | 1.8 | 33 | 17 | essentially eliminated inhibition |  |  |
| CCN(CC)C/C=C/C(=O)Nc1ccc(Oc2cc(Cl)nc3[nH]ccc23)cc1 |  |  |  |  |  |  | ED50, HCMV plaque formation ([1]; tested form: TFA): 2 µM; CC50/ED50 ([1]; tested form: TFA): 5; CC50 ([2]; tested form: TFA): 10 µM; IC50 ([3]; tested form: TFA): > 50 µM |
| CCN(CC)C/C=C/C(=O)Nc1ccc(Oc2cc(C)nc3[nH]ccc23)cc1 |  | 2 | 12 | > 50 |  | 6 |  |
| C=CC(=O)Nc1cccc(Oc2cc(N3CCC(O)CC3)nc3[nH]ccc23)c1 |  | 22 | > 50 | 50 |  |  |  |
| C=CC(=O)Nc1ccc(Oc2cc(C)nc3[nH]ccc23)cc1 | 0.0000 | 1.4 | 47 | 27 | not greatly reduced |  | UL53_C288S+UL50, inhibitory activities against the interaction [5]: 72.0000 and 74.0000 and 75.0000; anti-HCMV, antiviral activities (S7 Fig) ([1]; 0.40 μM): 59.0000 and 60.0000 and 65.0000; anti-HCMV, antiviral activities (S7 Fig) ([1]; 0.80 μM): 55.0000 and 60.0000; anti-HCMV, antiviral activities (S7 Fig) ([1]; 1.60 μM): 45.0000 and 50.0000; anti-HCMV, antiviral activities (S7 Fig) ([1]; 12.50 μM): 23.0000 and 25.0000 and 26.0000; cytotoxicity (S7 Fig) ([2]; 0.40 μM): 100.0000; cytotoxicity (S7 Fig) ([2]; 0.80 μM): 100.0000; cytotoxicity (S7 Fig) ([2]; 1.60 μM): 100.0000; cytotoxicity (S7 Fig) ([2]; 12.50 μM): 100.0000; cytotoxicity (S7 Fig) ([2]; 50.00 μM): 38.0000 and 45.0000 and 40.0000; HSV1 P30-UL42, inhibitory activities in HTRF assay ([6]; 0.40 μM, 0.4 µM): 102.0000 and 97.0000 and 100.0000; HSV1 P30-UL42, inhibitory activities in HTRF assay ([6]; 0.80 μM, 0.8 µM): 103.0000 and 93.0000 and 99.0000; HSV1 P30-UL42, inhibitory activities in HTRF assay ([6]; 1.60 μM, 1.6 µM): 107.0000 and 95.0000 and 102.0000; HSV1 P30-UL42, inhibitory activities in HTRF assay ([6]; 6.25 μM): 104.0000 and 98.0000; HSV1 P30-UL42, inhibitory activities in HTRF assay ([6]; 12.50 μM, 12.5 µM): 107.0000 and 96.0000 and 91.0000; HSV1 P30-UL42, inhibitory activities in HTRF assay ([6]; 50.00 μM): 103.0000 and 89.0000 and 86.0000; UL53_C214S+UL50, inhibitory activities against the interaction ([4]; 1.56 μM): 119.0000 and 134.0000 and 125.0000; UL53_C214S+UL50, inhibitory activities against the interaction ([4]; 50.00 μM): 61.0000 and 74.0000 and 70.0000 |
| C=CC(=O)Nc1cccc(Oc2cc(C)nc3[nH]ccc23)c1 | 0.0000 | 2.1 | 25 | 9.9 | essentially eliminated inhibition |  | HSV1 P30-UL42, inhibitory activities in HTRF assay ([6]; 0.40 μM): 100.0000; HSV1 P30-UL42, inhibitory activities in HTRF assay ([6]; 0.80 μM): 100.0000; HSV1 P30-UL42, inhibitory activities in HTRF assay ([6]; 1.60 μM): 100.0000; HSV1 P30-UL42, inhibitory activities in HTRF assay ([6]; 6.25 μM): 100.0000; HSV1 P30-UL42, inhibitory activities in HTRF assay ([6]; 12.50 μM): 100.0000; HSV1 P30-UL42, inhibitory activities in HTRF assay ([6]; 50.00 μM): 100.0000; HSV1 P30-UL42, inhibitory activities in HTRF assay ([6]; […]): 100.0000; inhibition in the HSV-1 P30-UL42 counterscreen assay ([6]; all concentrations tested (up to 50 μM)): without affecting P30-UL42 interactions; HCMV UL50-UL53, inhibitory activities in HTRF assay ([3]; 1.6 µM): 86.0000 and 87.0000; WT, inhibitory activities against the interactions of WT UL50 and UL53 ([3]; 6.25 μM): 60.0000 and 61.0000; UL53_C159S+UL50, inhibitory activities against the interaction [7]: 93.0000 |
| C=CC(=O)Nc1cccc(Oc2cc(N3CCC(C(=O)O)CC3)nc3[nH]ccc23)c1 |  | > 50 | > 50 | 50 |  |  |  |
| C=CC(=O)Nc1cccc(Oc2cccc3[nH]ccc23)c1 |  | 17.5 | 50 | 9.9 |  | 3 |  |
| C=CC(=O)Nc1cccc(Oc2ncnc3[nH]ccc23)c1 |  | 18 | 45 | > 50 |  | 2.5 |  |
| C=CC(=O)Nc1ccc(Oc2cc(Cl)nc3[nH]ccc23)cc1 |  | 16 | 38 | > 50 |  | 2.4 |  |

“And” between values parts separate entries of the source, which are not always exact repeats. Equal entries are not always repeated. Where two headings read alike, the source gives them in different places.
